Molecules are shown by their SMILES.

Common to all, as to settings: in vivo
Data set [1] relates to Homo sapiens. Nature of the data set: First order elimination rate constant in iv dosed patient (7 patients) with renal insufficiency.
In data set [2] the test system is Homo sapiens. The data set is described as follows: Half life in iv dosed patient (7 patients) with renal insufficiency.
For data set [3], the system named is Homo sapiens. Nature of the data set: First order elimination rate constant in iv dosed patient with normal renal function.
Data set [4] concerns Homo sapiens. The data set is described as follows: Half life in iv dosed patient with normal renal function.

Take `NP(=O)(O)N(CCCl)CCCl`: the Kel in data set [1] was 1.67e-05 s⁻¹; in data set [3] it was 2.42e-05 s⁻¹. The values for the t1/2 in data set [2] and in data set [4] were 13.4 h and 8.33 h, respectively.

Source of the values: ChEMBL document CHEMBL3785078 (Eur J Clin Pharmacol, 1981).
